A mixed list of measured activities; the numbers were collected in NIAID ChemDB.

Common to all: tests in culture; organism: Mycobacterium tuberculosis

MIC50, MIC90 and the like: level of inhibition, or share of isolates inhibited. Blank or dashed fields: not listed here. Neighbouring rows are from separate reports. Percent inhibition refers to the dose given; in toxicity tests it is the harm to the cells. ECn is the concentration giving n% inhibition of infection, replication or growth. MIC bound comes from a single tested concentration.

compound | strain | method | read-out | dose | value
O=C(c1ccc2ccccc2c1)c1cn(-c2ccc(Cl)cc2)nn1 | H37Rv | - | MIC | - | >12.5 µg/mL
Ic1ccc2c(c1)N(c1ccccc1)c1cc(Nc3ccc4nc5ccc(I)cc5[n+](-c5ccccc5)c4c3)ccc1N2 | H37Ra | - | MIC | - | 12.5 µM
Nc1nc(Nc2ccc(Cl)cc2)cc(Nc2ccc(Cl)cc2)n1 | H37Rv | - | MIC | - | 6.25 µg/mL
Cc1cc(C)cc(-n2c3nc(=O)n(C)c(=O)c-3nc3ccccc32)c1 | H37Rv | BACTEC | inhibition | 12.5 µg/mL | 19%
O=C(c1cn(-c2cccc3ccccc23)nn1)c1cccs1 | H37Rv | - | MIC | - | >12.5 µg/mL
Cc1ccc(C)c2c(N=Nc3ccccc3[N+](=O)[O-])c(O)[nH]c12 | H37Rv | resazurin | inhibition | 6.25 µg/mL | -12%
C[C@@H]1[C@@H](NC(=O)c2cc3cc(C(=O)O)ncc3[nH]2)C[C@H]2C[C@@H]1C2(C)C | H37Rv | resazurin | MIC90 | - | 2.7 µg/mL
O=C(Nc1ccccc1C(F)(F)F)c1cnccn1 | ATCC 27294 | resazurin | MIC | - | >100 µg/mL
CCc1nc2c(F)cc(C)cn2c1C(=O)NCc1ccc(N2CCN(S(=O)(=O)C(F)(F)F)C=N2)c(F)c1 | - | fluorescence | EC50 | - | 0.000389 µM
O=C(c1cn(-c2ccc(Cl)cc2)nn1)c1cccs1 | H37Rv | - | MIC | - | >12.5 µg/mL
CC1(C)CC(=O)C2=C(C1)N(Nc1ccccc1)C(N)=C(C#N)C2c1cc2ccccc2nc1Cl | H37Rv | agar | MIC | - | 8 µg/mL
C=C(C)[C@@H]1CC[C@]2(C(=O)O)CC[C@]3(C)C(CCC4[C@@]5(C)CC[C@@H](O)[C@@](C)(C(=O)O)C5CC[C@]43C)C12 | H37Rv | resazurin | MIC90 | - | 220 µg/mL
Cc1ccc(NC(=O)c2cnccn2)cc1 | ATCC 27294 | resazurin | MIC | - | 100 µg/mL
Cn1c([N+](=O)[O-])cnc1C=NNC(=O)c1ccccc1Sc1ccccc1 | H37Rv | resazurin | MIC90 | - | >50 µg/mL
COC(=O)c1c(C)ccc2c(O)c3c(cc12)C(=O)c1c2c(cc(O)c1C3=O)C1(C)OC(C)(O2)C(O)C(N(C)C)C1O | H37Ra | - | MIC | - | 12.5 µM
S=C(S)NCCNC(=S)S | H37Rv | BACTEC | MIC | - | 16 µg/mL
Cc1c(CN2CCOCC2)cc(-c2ccc(Cl)cc2)n1Cc1ccccc1 | 103471 | - | MIC | - | 8 µg/mL
CCc1nc2nc(N(C)C)c(Cl)cn2c1C(=O)NCc1ccc(N2CCN(S(=O)(=O)C(F)(F)F)C=N2)c(F)c1 | - | fluorescence | EC50 | - | 0.2 µM
CCNCC1CCN(c2c(F)cc3c(=O)c(C(=O)O)cn(CC)c3c2F)C1 | 64 strains | - | MIC50 | - | 2 µg/mL
CCOC(=O)C1=Nc2cccc3c(O)ccc1c23 | H37Rv | BACTEC | MIC bound | - | >12.5 µg/mL
COc1ccc(NN2C(N)=C(C#N)C(c3cc4cc(OC)ccc4nc3Cl)C3=C2CC(C)(C)CC3=O)cc1 | H37Rv | agar | MIC | - | 7 µg/mL
Cc1cc(C)c(C(=O)c2cn(-c3ccccc3)nn2)c(C)c1 | H37Rv | - | inhibition | 12.5 µg/mL | 10%
c1cc2c(cc1[C@H]1OC[C@H]3[C@@H]1CO[C@@H]3c1ccc3c(c1)OCO3)OCO2 | H37Rv | BACTEC | MIC bound | - | >12.5 µg/mL
C=C(C)O[C@H]1C[C@@]2(C)[C@@H](C[C@@H](O)[C@H]3[C@@]4(C)CC[C@@H](O)[C@@H](C)[C@@H]4CC[C@@]32C)/C1=C(\CCC=C(C)C)C(=O)[O-] | H37Ra | - | MIC | - | 1.56 µM
O=C(c1ccc2ccccc2c1)c1cn(-c2cccc3ccccc23)nn1 | H37Rv | - | inhibition | 12.5 µg/mL | 0%
CC(=O)Oc1ccc2c(c1)[nH]c1c(C)nccc12 | H37Rv | - | inhibition | 6.25 µg/mL | 15%
Cc1ccc(NN2C(N)=C(C#N)C(c3cc4cc(C)ccc4nc3Cl)C3=C2CC(C)(C)CC3=O)cc1 | H37Rv | agar | MIC | - | 32 µg/mL
O=C(c1cn(-c2ccccc2)nn1)c1cccc2ccccc12 | H37Rv | - | inhibition | 12.5 µg/mL | 83%
CCc1nc2ccc(Cl)cn2c1C(=O)NCc1ccc(N2CCN(Cc3nc(C(F)(F)F)cs3)C=N2)cc1 | - | fluorescence | EC50 | - | 0.13 µM
O=C(Nc1ccc(Cl)c(Cl)c1)c1ccccc1O | CNCTC MY 331/8 | - | MIC | - | 28 µM
Cc1c(N=Nc2ccccc2Cl)c(-c2ccccc2)nn1C(=S)S | H37Rv | BACTEC | MIC bound | - | ≤128 µg/mL
NNC(=O)c1ccncc1 | Erdman | BACTEC | MIC | - | 0.023 µg/mL
C=C1C(=O)O[C@H]2[C@H]1[C@H](OC(=O)/C(C)=C/COC(C)=O)C[C@]1(CO1)[C@@H]1C(O)[C@H]3O[C@@]3(C)[C@H]21 | H37Rv | BACTEC | inhibition | 12.5 µg/mL | 18%
CCC(C)C(=O)c1cn(-c2ccccc2)nn1 | H37Rv | - | MIC | - | >12.5 µg/mL
CCCCCCn1c(C)cc(CN2CCOCC2)c1C | 103471 | - | MIC | - | 8 µg/mL
CN(/N=C/c1ccccc1O)c1ccc2ccccc2n1 | H37Ra | - | MIC | - | 12.5 µM
CO[C@H]1/C=C/O[C@@]2(C)Oc3c(C)c(O)c4c(O)c(c5c(c4c3C2=O)NC2(CCN(CC(C)C)CC2)N=5)=NC(=O)/C(C)=C\C=C\[C@H](C)[C@H](O)[C@@H](C)[C@@H](O)[C@@H](C)[C@H](OC(C)=O)[C@@H]1C | 23 strains (rifampicin-susceptible) | - | MIC | - | ≤0.08 µg/mL
O=[N+]([O-])c1ccc(N2CCOCC2)c2c1no[n+]2[O-] | H37Rv | resazurin | inhibition | 6.25 µg/mL | 94%
O=C(NCc1ccccc1)c1ncccc1O | CNCTC MY 331/8 | - | MIC | - | 1000 µM
Cc1cc(CN2CCOCC2)c(C)n1Cc1ccccc1 | 103471 | - | MIC | - | >64 µg/mL
CCCCC(=O)Oc1ccc2c(c1)[nH]c1c(C)nccc12 | H37Rv | - | EC50 | - | >6.25 µg/mL
CO[C@H]1/C=C/O[C@@]2(C)Oc3c(C)c(O)c4c(O)c(c(/C=N/N5CCN6CCCCC6C5)c(O)c4c3C2=O)NC(=O)/C(C)=C\C=C\[C@H](C)[C@H](O)[C@@H](C)[C@@H](O)[C@@H](C)[C@H](OC(C)=O)[C@@H]1C | 23 strains (rifampicin-susceptible) | - | MIC | - | ≤0.16 µg/mL
C/C(=N\NC(N)=S)c1ccccc1 | H37Rv | - | MIC | - | 0.4 µg/mL
CCCCCCn1c(C)c(CN2CCN(C)CC2)c(CN2CCN(C)CC2)c1C | 103471 | - | MIC | - | >64 µg/mL
CN1CCN(C2=C(Cl)C(=O)c3ccccc3C2=O)CC1 | H37Rv | BACTEC | MIC bound | - | >12.5 µg/mL
COc1ncccc1Nc1cc2nc3ccccc3n(-c3ccc(OC(F)(F)F)cc3)c-2cc1=NC1CCC(OC)CC1 | H37Rv | fluorescence | MIC90 | - | 0.063 µg/mL
CO[C@H]1/C=C/O[C@@]2(C)Oc3c(C)c(O)c4c(O)c(c(N5CCN(Cc6c(C)cc(C)cc6C)CC5)c(O)c4c3C2=O)NC(=O)/C(C)=C\C=C\[C@H](C)[C@H](O)[C@@H](C)[C@@H](O)[C@@H](C)[C@H](OC(C)=O)[C@@H]1C | 23 strains (rifampicin-susceptible) | - | MIC | - | ≤0.08 µg/mL
CCN(CC)C(=O)c1c(C(=O)OC)c(C)n(NC(=O)c2cccc(C)c2)c1C | H37Rv | BACTEC | inhibition | 12.5 µg/mL | -28%
CC(C)N=c1cc2n(-c3ccc(Cl)cc3)c3ccccc3nc-2cc1Nc1ccc(Cl)cc1 | H37Rv | - | MIC | - | 0.06 µg/mL
C=C/C(C)=C/C[C@H]1C(=C)CC[C@H]2[C@](C)(CO)C[C@H](O)C[C@]12C | H37Rv (ATCC 27294) | - | MIC | - | >650 µM
[N-]=[N+]=Nc1ccccc1C(=O)NC(=O)Nc1ccccc1 | H37Rv | BACTEC | inhibition | 12.5 µg/mL | 35%
Cc1ccc(NN2C(N)=C(C#N)C(c3cc4cc(Cl)ccc4nc3Cl)C3=C2CC(C)(C)CC3=O)cc1 | H37Rv | agar | MIC | - | 72 µg/mL
CC12C[C@H]3OC(=O)[C@@H]1COC14OC5([C@H]2C1=O)[C@@](O)(CC[C@H]1[C@H]4C[C@@H](O)[C@@]2(O)CC=CC(=O)[C@]12C)C(=O)O[C@@]35C | H37Rv | - | MIC | - | 32 µg/mL
CC(=O)O[C@H]1C[C@@]2(C)[C@@H](C[C@@H](O)[C@H]3[C@@]4(C)CC[C@@H](O)[C@@H](C)[C@@H]4CC[C@@]32C)/C1=C(\CCC=C(C)C)C(=O)O | 64 strains | - | MIC50 | - | 8 µg/mL
CCc1nc2c(F)cc(F)cn2c1C(=O)NCc1ccc(N2CCN(S(=O)(=O)C(F)(F)F)C=N2)c(F)c1 | - | fluorescence | EC50 | - | 0.0038 µM
O=C1c2cc([N+](=O)[O-])cnc2S(=O)(=O)N1c1ccc(Oc2ccccc2)cc1 | H37Rv | resazurin | inhibition | 6.25 µg/mL | -16%
Cc1c(CN2CCN(C)CC2)cc(-c2ccc(Cl)cc2)n1C1CCCCC1 | 103471 | - | MIC | - | 8 µg/mL
O=C(NCc1cccc([N+](=O)[O-])c1)c1ncccc1O | CNCTC MY 331/8 | - | MIC | - | 250 µM
COc1ccccc1NC(=O)c1cnccn1 | ATCC 27294 | resazurin | MIC | - | >100 µg/mL
CC(=O)C(N=Nc1ccc(S(=O)(=O)Nc2ccccn2)cc1)C(=O)Nc1ccc(Cl)cc1 | H37Rv | resazurin | inhibition | 6.25 µg/mL | 12%
CN1CCN(c2cc3c(cc2F)c(=O)c(C(=O)O)cn3-c2ccc(F)cc2)CC1 | 64 strains | - | MIC90 | - | 4 µg/mL
O=C(NN=Cc1ccco1)c1ccccc1Sc1ccccc1 | H37Rv | resazurin | MIC90 | - | >50 µg/mL
CCc1nc2ncc(F)cn2c1C(=O)NCc1ccc(N2CCN(S(=O)(=O)C(F)(F)F)C(OC)=N2)c(F)c1 | - | fluorescence | EC50 | - | 0.00447 µM
CCCC(=O)Oc1ccc2c(c1)[nH]c1c(C)nccc12 | H37Rv | - | inhibition | 6.25 µg/mL | 31%
O=C1C2=Cc3ccccc3OC2(O)Oc2ccc(O)cc21 | H37Rv | BACTEC | MIC bound | - | >12.5 µg/mL
COc1ccc(NN2C(N)=C(C#N)C(c3cc4cc(Cl)ccc4nc3Cl)C3=C2CC(C)(C)CC3=O)cc1 | H37Rv | agar | MIC | - | 22 µg/mL
CCc1nc2ncccn2c1C(=O)NCc1ccc(N2CCN(S(=O)(=O)C(F)(F)F)C=N2)cc1 | - | fluorescence | EC50 | - | 0.079 µM
Cc1c(CN2CCN(C)CC2)c(CN2CCN(C)CC2)c(-c2ccc(Cl)cc2)n1C1CCCCC1 | 103471 | - | MIC | - | 8 µg/mL
CC1CN(c2cc3c(cc2F)c(=O)c(C(=O)O)cn3-c2ccc(F)cc2F)CCN1 | 64 strains | - | MIC90 | - | 1 µg/mL
C/C=C/CSc1cc(NC(=S)c2ccsc2C)ccc1Cl | H37Rv | BACTEC | inhibition | 6.25 µg/mL | 60%
COc1cccc(NC(=O)c2cnccn2)c1 | ATCC 27294 | resazurin | MIC | - | >100 µg/mL
Nc1nc2sc3ccccc3c(=O)n2n1 | H37Rv | resazurin | MIC bound | - | >6.25 µg/mL
Cc1[nH]ccc2c1[nH]c1cc(=O)ccc12 | H37Rv | - | EC50 | - | >6.25 µg/mL
O=C1C2=C(Nc3cc([N+](=O)[O-])ccc3N2)OC1c1ccc2c(c1)OCO2 | H37Rv | BACTEC | inhibition | 12.5 µg/mL | 5%
Cc1c(CN2CCN(C)CC2)c(CN2CCN(C)CC2)c(C)n1Cc1ccccc1 | 103471 | - | MIC | - | >64 µg/mL
CCOC(=O)c1oc2ccccc2c1CN | H37Rv | BACTEC | inhibition | 12.5 µg/mL | 13%
O=C(NCc1ccc([N+](=O)[O-])cc1)c1ncccc1O | CNCTC MY 331/8 | - | MIC | - | 250 µM
NC(=O)c1ccc[n+](Cc2ccc(Cl)cc2Cl)c1.[Cl-] | H37Rv | BACTEC | MIC bound | - | >12.5 µg/mL
Cc1ccc2nc(Cl)c(C3C(C#N)=C(N)N(Nc4ccc(F)cc4)C4=C3C(=O)CC(C)(C)C4)cc2c1 | H37Rv | agar | MIC | - | 33 µg/mL
CCN(CC)CCCC(C)Nc1cc(C)nc2ccc(N(C)C)cc12 | H37Rv | BACTEC | MIC bound | - | >12.5 µg/mL
O=C(NN=Cc1cccs1)c1ccccc1Sc1ccccc1 | H37Rv | resazurin | MIC90 | - | >50 µg/mL

A second listing of 10 rows from above:

| compound | strain | method | read-out | dose | value |
|---|---|---|---|---|---|
| O=C(c1cn(-c2ccc(Cl)cc2)nn1)c1cccs1 | H37Rv | - | MIC | - | >12.5 µg/mL |
| CCc1nc2ncccn2c1C(=O)NCc1ccc(N2CCN(S(=O)(=O)C(F)(F)F)C=N2)cc1 | - | fluorescence | EC50 | - | 0.079 µM |
| CC1(C)CC(=O)C2=C(C1)N(Nc1ccccc1)C(N)=C(C#N)C2c1cc2ccccc2nc1Cl | H37Rv | agar | MIC | - | 8 µg/mL |
| CC1CN(c2cc3c(cc2F)c(=O)c(C(=O)O)cn3-c2ccc(F)cc2F)CCN1 | 64 strains | - | MIC90 | - | 1 µg/mL |
| O=C(Nc1ccc(Cl)c(Cl)c1)c1ccccc1O | CNCTC MY 331/8 | - | MIC | - | 28 µM |
| O=C(NN=Cc1ccco1)c1ccccc1Sc1ccccc1 | H37Rv | resazurin | MIC90 | - | >50 µg/mL |
| O=C(NCc1ccc([N+](=O)[O-])cc1)c1ncccc1O | CNCTC MY 331/8 | - | MIC | - | 250 µM |
| CC12C[C@H]3OC(=O)[C@@H]1COC14OC5([C@H]2C1=O)[C@@](O)(CC[C@H]1[C@H]4C[C@@H](O)[C@@]2(O)CC=CC(=O)[C@]12C)C(=O)O[C@@]35C | H37Rv | - | MIC | - | 32 µg/mL |
| Cc1ccc(NN2C(N)=C(C#N)C(c3cc4cc(Cl)ccc4nc3Cl)C3=C2CC(C)(C)CC3=O)cc1 | H37Rv | agar | MIC | - | 72 µg/mL |
| Cc1ccc(C)c2c(N=Nc3ccccc3[N+](=O)[O-])c(O)[nH]c12 | H37Rv | resazurin | inhibition | 6.25 µg/mL | -12% |